Compound potency records, mixed from different reports. Data source: NIAID ChemDB in PubChem.

Common to all: tests in culture; species: Mycobacterium tuberculosis

MIC bound: limit read from a one-dose screen. Inhibition is in % at the dose shown (toxicity tests: loss of growth or viability). A number after MIC or MFC names an inhibition level or a share of isolates. ECn is the concentration giving n% inhibition of infection, replication or growth. An empty or dashed field is not shown. a–b is a range or a potency band. Rows are shuffled and stem from different studies.

smiles | strain | changes | measure | read by | tested at | value
N#Cc1c(-c2cccnc2)nc(N2CCc3ccccc3C2)[nH]c1=O | H37Ra | - | MIC | - | - | >50 µg/mL
CN1C(NC(=O)c2ccc(Cl)nc2)=NS(=O)(=O)c2cc(Cl)ccc21 | H37Rv (ATCC 27294) | - | MIC | - | - | >16 µg/mL
O=C1c2cscc2C(=O)c2c(Cl)sc(Cl)c21 | H37Rv | - | MIC bound | resazurin | - | >6.25 µg/mL
O=c1[nH]c2ccc(Cl)cc2c(O)c1N=Nc1cccc([N+](=O)[O-])c1 | H37Rv | - | MIC | resazurin | - | <6.25 µg/mL
CO[C@H]1/C=C/O[C@@]2(C)Oc3c(C)c(O)c4c(=O)c(c5oc6cc(N7CCN(CC(C)C)CC7)cc(=O)c6nc5c4c3=C2O)NC(=O)/C(C)=C\C=C\[C@H](C)[C@H](O)[C@@H](C)[C@@H](O)[C@@H](C)[C@H](OC(C)=O)[C@@H]1C | TN728 | - | MIC | - | - | <1 µg/mL
CC(C)[C@H]1CC[C@H]2[C@@H]3C=C[C@](C)(O)CC[C@]3(C)CC[C@]12C(=O)O | H37Rv | - | MBC | visual reading / absorbance | - | 312 µM
O=c1c2ccccc2[nH]c2cc(-n3nnc4ccccc4c3=O)ccc12 | H37Rv | - | inhibition | BACTEC | 12.5 µg/mL | 0%
CC(=O)c1ccc(N=Nc2c(O)c3cccc(Cl)c3[nH]c2=O)cc1 | H37Rv | - | MIC | resazurin | - | >6.25 µg/mL
CCOC(=O)Cn1c(=O)c2ccccc2c2ccccc21 | H37Rv | - | inhibition | BACTEC | 12.5 µg/mL | 4%
O=c1[nH]c2c(Cl)ccc(Cl)c2c(O)c1N=Nc1ccc(F)cc1 | H37Rv | - | inhibition | resazurin | 6.25 µg/mL | 80%
CN(C)CCCNc1ccc2ncn3c4ccccc4c(=O)c1c23 | H37Rv | - | MIC bound | BACTEC | - | ≤12.5 µg/mL
CC(C)N=c1cc2n(-c3ccc(Cl)cc3)c3ccccc3nc-2cc1Nc1ccc(Cl)cc1 | MTB11 (EMB-resistant) | - | MIC | - | - | 1 µg/mL
CCCCCCC#Cc1cncc(-c2nnc(SCc3ccccc3)n2C)c1 | Erdman | - | EC50 | resazurin | - | 175 µM
CN[C@@H]1[C@H](O[C@H]2[C@H](O[C@H]3[C@H](O)[C@@H](O)[C@H](N=C(N)N)[C@@H](O)[C@@H]3N=C(N)N)O[C@@H](C)[C@]2(O)C=O)O[C@@H](CO)[C@H](O)[C@H]1O | H37Rv | EJMCh6C MmpL3  (G253E) | MIC90 | visual reading | - | 2 µM
C[C@@H]1CN(c2c(F)c(N)c3c(=O)c(C(=O)O)cn(C4CC4)c3c2F)C[C@H](C)N1 | 19 strains | - | MIC50 | - | - | 0.12 µg/mL
O=C(c1ccncc1)N1N=C(c2cccs2)CC1(O)C(F)(F)F | H37Rv | - | MIC | - | - | >293 µM
CC(C)N1C(NNC(=O)c2cnccn2)=NS(=O)(=O)c2ccccc21 | Clinical isolates drug-resistant | - | MIC | - | - | >16 µg/mL
CC1=NN(C(=O)c2ccncc2)C(O)(C(F)(F)F)C1 | H37Rv | - | MIC | - | - | 5.71 µM
O=C1CN(c2cccc(Cl)c2)C(=O)CN1NCNN1CC(=O)N(c2cccc(Cl)c2)CC1=O | H37Rv | - | inhibition | resazurin | 6.25 µg/mL | 7%
CN1C(NNC(=O)c2ccc(Cl)nc2)=NS(=O)(=O)c2ccccc21 | Clinical isolates drug-sensitive | - | MIC | - | - | >16 µg/mL
CCCn1cnc2cc(NCc3ccc(Cl)cc3Cl)ccc21 | - | - | inhibition | GFP | 16 µM | 90%
Nc1c(C(=O)NCc2ccccc2)c2nc3c(C(=O)NCc4ccccc4)cccc3oc-2cc1=O | H37Rv | - | MIC bound | BACTEC | - | >12.5 µg/mL
Nc1ccc(-n2cc(C(=O)O)c(=O)c3cc(F)c(N4CCOCC4)cc32)c(F)c1 | H37Rv | - | inhibition | BACTEC | 6.25 µg/mL | 48%
CC(=O)OC[C@]12CC[C@@]3(C)CC=C(C)C=C[C@H]3[C@@H]1CC[C@@H]2C(C)C | H37Rv | - | MIC | visual reading / absorbance | - | 151.3 µM
NCCC(O)C(N)CC(=O)NC1CNC(=O)C(C2CCN=C(N)N2)NC(=O)/C(=C/NC(N)=O)NC(=O)C(CO)NC(=O)C(CO)NC1=O | 05001 (H37RV) | - | MIC | - | - | 12.5 µg/mL
CC1=CC[C@]2(C)CC[C@]3(CO)[C@@H](C(C)C)CC[C@H]3[C@@H]2C=C1 | H37Rv | - | MIC | visual reading / absorbance | - | 5.4 µM
C=C1C(=O)[C@@]23[C@@H]4CC5=C(C(=O)CC5(C)C)[C@@](C)(O4)[C@@H]2CC[C@@H]1[C@H]3O | H37Rv | - | MIC | resazurin / absorbance | - | >50 µg/mL
CCCCNc1nc(-c2ccc(F)cc2)c(C#N)c(=O)[nH]1 | H37Ra | - | MIC | - | - | >50 µg/mL
CC(C)[C@H]1CC[C@H]2[C@@H]3C=C[C@]4(C)CC[C@@]3(CC[C@]12CO)CO4 | H37Rv | - | MIC | visual reading / absorbance | - | 20.5 µM
Cc1ccc(-c2nc(N3CCN(c4ccccc4)CC3)[nH]c(=O)c2C#N)cc1 | H37Ra | - | MIC | - | - | >50 µg/mL
CCn1cc(C(=O)O)c(=O)c2cc(F)c(N3CCN(Cc4ccc5cccc(O)c5n4)CC3)cc21 | H37Rv | - | inhibition | BACTEC | 6.25 µg/mL | 86%
O=C1C(Cl)=C(Nc2ccc3c(c2NC2=C(Cl)C(=O)c4ccccc4C2=O)C(=O)c2ccccc2C3=O)C(=O)c2ccccc21 | H37Rv | - | MIC | BACTEC | - | 6.25 µg/mL
Nc1ccc(-n2cc(C(=O)O)c(=O)c3ccc(N4CCCCC4)cc32)c(F)c1 | H37Rv | - | inhibition | BACTEC | 6.25 µg/mL | 0%
COc1ccc2[nH]c(=O)c(N=Nc3ccccc3)c(O)c2c1 | H37Rv | - | MIC | resazurin | - | >6.25 µg/mL
Cn1c(=O)c2c(nc3n(Cc4ccccc4)c(=O)c(Br)cn23)n(C)c1=O | H37Rv | - | inhibition | resazurin | 6.25 µg/mL | 37%
Nc1ccc(-n2cc(C(=O)O)c(=O)c3cc(F)c(N4CCCCC4)cc32)c(F)c1 | H37Rv | - | inhibition | BACTEC | 6.25 µg/mL | 95%
COc1ccc(-c2nc(NCCO)[nH]c(=O)c2C#N)cc1 | H37Ra | - | MIC | - | - | >50 µg/mL
CO[C@H]1/C=C/O[C@@]2(C)Oc3c(C)c(O)c4c(O)c(c(/C=N/N5CCN(C)CC5)c(O)c4c3C2=O)NC(=O)/C(C)=C\C=C\[C@H](C)[C@H](O)[C@@H](C)[C@@H](O)[C@@H](C)[C@H](OC(C)=O)[C@@H]1C | 05001 (H37RV) | - | MIC | - | - | 3.2 µg/mL
CN1C(NNC(=O)c2cccnc2)=NS(=O)(=O)c2ccccc21 | Clinical isolates drug-resistant | - | MIC | - | - | >16 µg/mL
CCCCCCCCNc1nc(-c2cccnc2)c(C#N)c(=O)[nH]1 | H37Ra | - | MIC | - | - | 25–50 µg/mL
C=C1C(=O)[C@]23C[C@H]1CC[C@H]2[C@]1(C)CCC[C@](C)(COC(C)=O)[C@H]1C[C@H]3O | H37Ra | - | MIC | resazurin / absorbance | - | 3.125–6.25 µg/mL
C[C@@H]1CN(c2c(F)c(N)c3c(=O)c(C(=O)O)cn(C4CC4)c3c2F)C[C@H](C)N1 | 900233 | - | MIC | - | - | 0.1 µg/mL
C=CC(C)(C)c1c2c(c(O)c3c(=O)c4ccc(O)c(O)c4oc13)C=CC(C)(C)O2 | H37Rv | - | inhibition | BACTEC | 12.8 µg/mL | 79%
Cc1cc2nc(CCC3CCCCC3)[nH]c2cc1C | H37Rv | 4/1 MmpL3 (V285A) | MIC90 | visual reading / absorbance | - | 2.9 µM
COc1ccc(-c2nc(N3CCN(c4ccccc4)CC3)[nH]c(=O)c2C#N)cc1 | H37Ra | - | MIC | - | - | >50 µg/mL
CCCCCCC#Cc1cncc(-c2nnc(SCc3cc([N+](=O)[O-])cc([N+](=O)[O-])c3)n2C2CC2)c1 | - | - | EC50 | resazurin | - | 1.1 µM
CN(C)NP(=O)(NN(C)C)c1ccccc1 | H37Rv | - | inhibition | BACTEC | 12.5 µg/mL | 0%
NNC(=O)c1ccncc1 | H37Ra | - | MIC | resazurin / absorbance | - | 0.0062–0.012 µg/mL
Cc1cc2nc3c(N)ccc(N)c3nc2cc1N | H37Rv | - | MIC bound | BACTEC | - | >12.5 µg/mL
CO[C@H]1/C=C/O[C@@]2(C)Oc3c(C)c(O)c4c(O)c(c(/C=N/N5CCN(C)CC5)c(O)c4c3C2=O)NC(=O)/C(C)=C\C=C\[C@H](C)[C@H](O)[C@@H](C)[C@@H](O)[C@@H](C)[C@H](OC(C)=O)[C@@H]1C | H37Ra | - | MIC | resazurin / absorbance | - | 0.05–0.1 µg/mL
Clc1ccc(Nc2cc3nc4ccccc4n(-c4ccc(Cl)c(Cl)c4)c-3cc2=NC2CCNCC2)cc1Cl | MTB12 (PZA-resistant) | - | MIC | - | - | 0.12 µg/mL
O=C(c1ccncc1)N1N=CCC1(O)C(F)(F)F | RGH101 | - | MIC | - | - | 12 µM
CC(C)CC1NC(=O)CCC(NC(=O)C(Cc2ccc(O)cc2)NC(=O)OCc2ccccc2)C(=O)NC(Cc2ccccc2)C(=O)NC(Cc2ccccc2)NC1=O | H37Rv | - | inhibition | resazurin | 6.25 µg/mL | -16%
CC1COn2cc(C(=O)O)c(=O)c3cc(F)c(N4CCN(Cc5ccc6cccc(O)c6n5)CC4)c1c32 | H37Rv | - | inhibition | BACTEC | 6.25 µg/mL | 98%
FC(F)(F)c1cccc(NC(=S)SCc2ccc(Cl)c(Cl)c2)c1 | H37Rv | - | MIC bound | resazurin | - | >6.25 µg/mL
CN1C(NC(=O)c2cnccn2)=NS(=O)(=O)c2cc(Cl)ccc21 | H37Rv (ATCC 27294) | - | MIC | - | - | >16 µg/mL
NNC(=O)c1ccncc1 | H37Rv | EJMCh4/1 MmpL3 (V285A) | MIC90 | visual reading / absorbance | - | 0.07 µM
CN1C(NNC(=O)c2cnccn2)=NS(=O)(=O)c2ccc(Cl)cc21 | Clinical isolates drug-sensitive | - | MIC | - | - | >16 µg/mL
CC(=O)NC[C@H]1CN(c2ccc(-c3ccc(CNCCCF)cc3)c(F)c2)C(=O)O1 | - | - | EC90 | low oxygen | - | 0.8 µg/mL
O=C(NNC1=NS(=O)(=O)c2ccccc2N1c1ccccc1)c1cnccn1 | H37Rv (ATCC 27294) | - | MIC | - | - | 8 µg/mL
N#Cc1c(-c2cccnc2)nc(NCCO)[nH]c1=O | H37Ra | - | MIC | - | - | >50 µg/mL
NNc1nc2ccccc2c(=O)n1NC(=O)C(=O)Nc1cccc(C(F)(F)F)c1 | H37Rv | - | inhibition | BACTEC | 12.5 µg/mL | -14%
C=C1C[C@@]23CC[C@@H]4[C@@](C)(CO)CCC[C@@]4(C)[C@@H]2[C@@H](OC(C)=O)C[C@@H]1C3 | H37Rv | - | MIC | resazurin / absorbance | - | >50 µg/mL
Cc1ccccc1C1OC(=O)c2ccc3ccccc3c21 | H37Rv | - | inhibition | BACTEC | 12.5 µg/mL | 12%
Cc1cccc(N=Nc2c(O)c3cccc(C)c3[nH]c2=O)c1 | H37Rv | - | inhibition | resazurin | 6.25 µg/mL | 31%
C=C1C(=O)[C@]23[C@H](OC(C)=O)[C@H]1CC[C@H]2[C@@]1(C)[C@H](C[C@H]3OC(C)=O)C(C)(C)CC[C@H]1OC(C)=O | H37Ra | - | MIC | resazurin / absorbance | - | <1.56 µg/mL
CCCCCCC#Cc1cncc(-c2nnc(SCc3cccc([N+](=O)[O-])c3)n2C)c1 | - | - | EC50 | resazurin | - | 31 µM
CC[C@H](C)C(=O)O[C@@H]1C[C@@]2(C)[C@H](c3ccoc3)OC(=O)C[C@]23OC2(C)OC34[C@H](OC(=O)C(C)C)[C@]3(O)[C@@H](OC(=O)[C@]5(C)O[C@H]5C)C5(C)C[C@]3(O)[C@](C)([C@H]5CC(=O)OC)C14O2 | H37Rv | - | MIC bound | BACTEC | - | >12.5 µg/mL
O=C(O)c1cn(C2CC2)c2cc(N3CCN(Cc4ccc5cccc(O)c5n4)CC3)c(F)cc2c1=O | H37Rv | - | inhibition | BACTEC | 6.25 µg/mL | 98%
CC(C)O/N=C/c1cc(NC(=S)OC(C)C)ccc1Cl | H37Rv | - | inhibition | BACTEC | 12.5 µg/mL | 82%
N#Cc1c(-c2cccnc2)nc(N2CCN(c3ccccc3)CC2)[nH]c1=O | H37Ra | - | MIC | - | - | >50 µg/mL
OCCSCc1cc2c(O)c(c1)Cc1cc(CSCCO)cc(c1O)Cc1cc(CSCCO)cc(c1O)Cc1cc(CSCCO)cc(c1O)C2 | H37Rv | - | MIC bound | BACTEC | - | >12.5 µg/mL
Cc1c(Cl)cccc1N=Nc1c(O)c2ccc([N+](=O)[O-])cc2[nH]c1=O | H37Rv | - | MIC | resazurin | - | <6.25 µg/mL
COc1ccc(S(=O)(=O)F)cc1NC(=O)CCc1ccc(N2C(N)=NC(N)=NC2(C)C)cc1Cl | H37Rv | - | MIC bound | BACTEC | - | >12.5 µg/mL
C=C1C(=O)[C@@]23[C@H](O)C[C@@H]4C(C)(C)CC[C@@H](OC(C)=O)[C@@]4(C)[C@@H]2CC[C@@H]1[C@H]3O | H37Rv | - | MIC | resazurin / absorbance | - | 12.5–25 µg/mL
O=C(Nc1ccc(CSc2ccc(Cl)cc2)o1)N1CCOCC1 | H37Rv | - | inhibition | BACTEC | 12.5 µg/mL | 2%
CCN=c1cc2n(-c3ccc(Cl)cc3)c3ccccc3nc-2cc1Nc1ccc(Cl)cc1 | 2219 (INH RIF-RES) | - | MIC | - | - | 0.12 µg/mL

The last 4 rows once more:

smiles,strain,changes,measure,read by,tested at,value
COc1ccc(S(=O)(=O)F)cc1NC(=O)CCc1ccc(N2C(N)=NC(N)=NC2(C)C)cc1Cl,H37Rv,-,MIC bound,BACTEC,-,>12.5 µg/mL
C=C1C(=O)[C@@]23[C@H](O)C[C@@H]4C(C)(C)CC[C@@H](OC(C)=O)[C@@]4(C)[C@@H]2CC[C@@H]1[C@H]3O,H37Rv,-,MIC,resazurin / absorbance,-,12.5–25 µg/mL
O=C(Nc1ccc(CSc2ccc(Cl)cc2)o1)N1CCOCC1,H37Rv,-,inhibition,BACTEC,12.5 µg/mL,2%
CCN=c1cc2n(-c3ccc(Cl)cc3)c3ccccc3nc-2cc1Nc1ccc(Cl)cc1,2219 (INH RIF-RES),-,MIC,-,-,0.12 µg/mL